# Results from ChEMBL document CHEMBL1764973 (J Med Chem, 2011).
# Sequences of proteins named here, by UniProt entry; tags and fusion partners are left off. A change or cut given only in a name is not applied to a line headed by its entry.
# UniProt Q9H3N8: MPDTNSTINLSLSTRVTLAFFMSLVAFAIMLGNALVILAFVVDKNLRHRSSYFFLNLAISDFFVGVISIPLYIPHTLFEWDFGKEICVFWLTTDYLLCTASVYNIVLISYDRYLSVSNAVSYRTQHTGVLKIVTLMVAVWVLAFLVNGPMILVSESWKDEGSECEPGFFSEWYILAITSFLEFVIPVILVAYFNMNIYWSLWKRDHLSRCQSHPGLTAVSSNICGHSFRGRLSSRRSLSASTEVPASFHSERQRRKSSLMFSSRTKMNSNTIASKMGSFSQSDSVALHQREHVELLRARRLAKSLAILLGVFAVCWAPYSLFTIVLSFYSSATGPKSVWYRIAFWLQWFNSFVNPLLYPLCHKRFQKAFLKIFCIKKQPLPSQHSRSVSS
# Target: Histamine H4 receptor (Homo sapiens) (UniProt Q9H3N8)
# Details: 10 uM
smiles,measurement,value
COc1ccc(-c2c(C)c(C(=O)NC3(C#N)CCOCC3)nn2-c2ccccc2Br)cc1,inhibition,< 50%
